This assay concerns the target 2F5 monoclonal antibody (human). Description: SPR; Biacore 3000, RT; 2F5 IgG immobilised on a CM5 chip by amine coupling (about 500 RU); ES proteins or peptide as analytes in HEPES-EP buffer (3.9-500 nM for ES5, ES2, ES4; 62.5-2000 nM for ES1; 3.9-250 nM for the peptide); 3 min association at 30 uL/min, 3 min dissociation; 1:1 Langmuir fit …. A general note: SPR reads the build-up and loss of mass on a sensor chip optically.

Chains of the proteins cited; added tags and fusions are not shown. Chains listed by the source or under a name are the forms on record and can include a tag or linker.
2F5 monoclonal antibody (human), heavy, as listed by the source, chain 1 of 2: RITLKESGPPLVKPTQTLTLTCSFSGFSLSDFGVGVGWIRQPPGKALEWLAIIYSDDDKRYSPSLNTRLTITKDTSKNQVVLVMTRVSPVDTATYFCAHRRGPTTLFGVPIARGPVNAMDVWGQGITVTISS
2F5 monoclonal antibody (human), light, as listed by the source, chain 2 of 2: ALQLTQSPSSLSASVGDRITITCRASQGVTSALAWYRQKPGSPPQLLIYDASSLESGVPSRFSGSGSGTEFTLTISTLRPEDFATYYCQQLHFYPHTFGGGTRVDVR

On to “2F5 epitope scaffold ES1 (designed binder)”, for which the Kd was determined as 71.1 nM.
With “2F5 epitope scaffold ES4 (designed binder)”, the Kd is 85.2 nM, the koff came out at 0.00299 s⁻¹ and the on-rate (kon) turned out to be 35100 M⁻¹ s⁻¹.
For the substance “2F5 epitope scaffold ES5 (designed binder)”, the dissociation constant Kd was determined as 41.1 nM and the koff is 0.000413 s⁻¹.

Broadly, the Kd is the equilibrium constant for the complex coming apart. Higher therefore signals lower affinity. As usually defined, the koff is the rate constant with which the complex falls apart. A higher koff goes with a short-lived complex. The kon is the rate constant with which the complex forms.

For the origin of these results see paper PMC3027617.
